Assay: CD spectroscopy
Type: physicochemical
Conditions: 20 µM peptide, 10 mM phosphate buffer pH 7 with 50% TFE, 20 °C

Sequence: GLRKRLRKFRNKIKEK [sC18, new cell-penetrating peptide, residues 106-121 of the antimicrobial peptide CAP18]
- R-value (ratio of molar ellipticity at 222 nm and 207 nm), 50% TFE: 0.78

Reference: PMC3978507, “Fusion of a Short HA2-Derived Peptide Sequence to Cell-Penetrating Peptides Improves Cytosolic Uptake, but Enhances Cytotoxic Activity” (Pharmaceuticals, 2009)
